# Reference: publication PMC9765458 (Science Translational Medicine, 2022)
# By UniProt entry, the sequences of proteins in these tests, tags left out. Residues count along the entry.
# UniProt P0C6X9, 3334-3636 limits assumed: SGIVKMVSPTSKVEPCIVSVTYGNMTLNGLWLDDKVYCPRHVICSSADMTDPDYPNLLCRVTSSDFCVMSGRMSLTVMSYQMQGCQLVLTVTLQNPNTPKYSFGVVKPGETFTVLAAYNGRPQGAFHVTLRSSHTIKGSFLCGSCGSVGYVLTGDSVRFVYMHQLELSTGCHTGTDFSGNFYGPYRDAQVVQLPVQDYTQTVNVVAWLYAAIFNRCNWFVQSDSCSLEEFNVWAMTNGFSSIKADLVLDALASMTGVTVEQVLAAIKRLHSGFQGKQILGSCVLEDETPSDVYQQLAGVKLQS
# Values joined by “and” are separate entries in the source; they are usually repeats but may differ in a detail not shown here. Equal entries are not always repeated. Where two headings read alike, the source gives them in different places.
# How the values were obtained:
# [1] = test system: VSV-G-3CL^pro-L F305L
# [2] = test system: wild-type VSV-G-3CL^pro-L
# [3] = biological target: wild-type 3CL^pro (Severe acute respiratory syndrome coronavirus 2, UniProt P0DTD1); conditions: wt enzyme, substrate kinetics
# [4] = test system: VSV-G-3CL^pro-L G138S/F305L; conditions: Fig 3, 24 hours after infection
# [5] = test system: recombinant wt SARS-CoV-2-mCherry (rWA1); assay: Recombinant SARS-CoV-2 (rWA1) mCherry inhibition in A549-hACE2 cells; format: cell-based; conditions: 48hpi, rWA1 wild-type
# [6] = test system: recombinant L167F F305L SARS-CoV-2-mCherry (rWA1); assay: as above; conditions: for IC50: L167F F305L rWA1-mCherry, A549-hACE2
# [7] = test system: recombinant L167F SARS-CoV-2-mCherry (rWA1); assay: as above; conditions: L167F rWA1-mCherry, A549-hACE2
# [8] = test system: VSV-G-3CL^pro-L L167F-2 (L167F.2); conditions: Fig 3, 24 hours after infection
# [9] = test system: VSV-G-3CL^pro-L L167F (L167F.1); conditions: Fig 3, 24 hours after infection
# [10] = biological target: MHV 3CL^pro (Murine coronavirus, UniProt P0C6X9); conditions: Fig 1A
# [11] = test system: VSV-G-3CL^pro-L Y54C; conditions: Fig 3, 24 hours after infection
# [12] = test system: VSV-G-3CL^pro-L Q192R/F305L; conditions: Fig 3, 24 hours after infection
# [13] = test system: VSV-G-3CL^pro-L N203D; conditions: Fig 3, 24 hours after infection
# [14] = Fig 1C, GC376 0.01 µM, 48 hours
# [15] = Fig 1C, nirmatrelvir 0.1 µM, 48 hours
# [16] = Fig 1C, nirmatrelvir 1 µM, 48 hours
# [17] = Fig 3, nirmatrelvir 0.1 µM, 24 hours after infection
# [18] = Fig 3, nirmatrelvir 30 µM, 24 hours after infection
# [19] = Fig 3, nirmatrelvir 100 µM, 24 hours after infection
compound,measurement,setting,value
GC376,F305L titer TCID50,[1]; [14],7500000 TCID50 and 5620000 TCID50
same,F305L titer TCID50,"[1]; Fig 1C, GC376 0.1 µM, 48 hours",13300000 TCID50
same,F305L titer TCID50,"[1]; Fig 1C, GC376 10 µM, 48 hours",17800000 TCID50 and 13300000 TCID50
same,F305L titer TCID50,"[1]; Fig 1C, GC376 25 µM, 48 hours",10000000 TCID50
same,wt titer TCID50,[2]; [14],1780000 TCID50 and 1000000 TCID50
same,wt titer TCID50,"[2]; Fig 1C, GC376 0.1 µM, 48 hours",10000000 TCID50 and 17800000 TCID50
same,wt titer TCID50,"[2]; Fig 1C, GC376 1 µM, 48 hours",17800000 TCID50 and 10000000 TCID50
same,wt titer TCID50,"[2]; Fig 1C, GC376 10 µM, 48 hours",7500000 TCID50 and 13300000 TCID50
same,wt titer TCID50,"[2]; Fig 1C, GC376 25 µM, 48 hours",75000 TCID50
same,wt titer TCID50,"[2]; Fig 1C, GC376 75 µM, 48 hours",237 TCID50 and 133 TCID50
CC[C@H](NC(C)=O)C(=O)N[C@H](C(=O)N[C@@H](CC(C)C)C(=O)N[C@@H](CCC(N)=O)C(=O)Nc1ccc2c(C)cc(=O)oc2c1)C(C)(C)C,Km,[3],80.6 µM
"CC(C)(C)[C@H](NC(=O)C(F)(F)F)C(=O)N1C[C@H]2[C@@H]([C@H]1C(=O)N[C@H](C#N)C[C@@H]1CCNC1=O)C2(C)C [Nirmatrelvir, nirmatrelvir]",F305L G138S titer TCID50,[4]; nirmatrelvir 0.1 µM,100000000 TCID50 and 178000000 TCID50
same,F305L G138S titer TCID50,[4]; nirmatrelvir 1 µM,422000000 TCID50 and 562000000 TCID50
same,F305L G138S titer TCID50,[4]; nirmatrelvir 30 µM,42200000 TCID50 and 56200000 TCID50
same,F305L G138S titer TCID50,[4]; nirmatrelvir 100 µM,750000 TCID50 and 562000 TCID50
same,mCherry normalized,[5]; Nirmatrelvir 0.0625 µM,0.23 and 0.39
same,mCherry normalized,[5]; Nirmatrelvir 0.5 µM,-0.00835
same,mCherry normalized,"[6]; 72hpi, Nirmatrelvir 1 µM, rWA1 L167F F305L",0.29 and 0.36 and 0.21
same,IC50,"[6]; read-out: IC50 48 hpi, 48 hpi",20.1 nM
same,IC50,"[6]; read-out: IC50 72 hpi, 72 hpi",23.1 nM
same,IC50,"[7]; read-out: IC50 48 hpi, 48 hpi",16.2 nM
same,IC50,"[7]; read-out: IC50 72 hpi, 72 hpi",20.1 nM
same,L167F.2 titer TCID50,[8]; nirmatrelvir 0.1 µM,75000000 TCID50 and 100000000 TCID50
same,L167F.2 titer TCID50,[8]; nirmatrelvir 3 µM,75000 TCID50 and 100000 TCID50
same,L167F.2 titer TCID50,[8]; nirmatrelvir 10 µM,75000 TCID50
same,L167F.1 titer TCID50,[9]; nirmatrelvir 0.1 µM,31600000 TCID50
same,L167F.1 titer TCID50,[9]; nirmatrelvir 3 µM,4220000 TCID50
same,L167F.1 titer TCID50,[9]; nirmatrelvir 10 µM,1780000 TCID50 and 1000000 TCID50
same,L167F.1 titer TCID50,[9]; nirmatrelvir 30 µM,133000 TCID50 and 237000 TCID50
same,L167F.1 titer TCID50,[9]; nirmatrelvir 100 µM,1780 TCID50 and 3160 TCID50
same,F305L titer TCID50,[1]; [15],237000000 TCID50 and 133000000 TCID50
same,F305L titer TCID50,[1]; [16],56200000 TCID50 and 75000000 TCID50
same,F305L titer TCID50,"[1]; Fig 1C, nirmatrelvir 3 µM, 48 hours",56200000 TCID50 and 42200000 TCID50 and 31600000 TCID50
same,F305L titer TCID50,[1]; [17],422000000 TCID50 and 316000000 TCID50
same,F305L titer TCID50,[1]; [18],1000 TCID50 and 1330 TCID50
same,F305L titer TCID50,[1]; [19],133 TCID50 and 178 TCID50
same,dsRed positive cells,[10]; 0.3 µM,3 and 4
same,dsRed positive cells normalized to highest mean,[10]; 0.3 µM,0.0007 and 0.0009
same,dsRed positive cells,[10]; 1 µM,7 and 5
same,dsRed positive cells normalized to highest mean,[10]; 1 µM,0.0016 and 0.0011
same,dsRed positive cells,[10]; 3 µM,6
same,dsRed positive cells normalized to highest mean,[10]; 3 µM,0.0013
same,dsRed positive cells,[10]; 10 µM,10 and 7
same,dsRed positive cells normalized to highest mean,[10]; 10 µM,0.0022 and 0.0016
same,dsRed positive cells,[10]; 30 µM,29 and 26
same,dsRed positive cells normalized to highest mean,[10]; 30 µM,0.0065 and 0.0058
same,dsRed positive cells,[10]; 100 µM,556 and 539
same,dsRed positive cells normalized to highest mean,[10]; 100 µM,0.1246 and 0.1208
same,Y54C titer TCID50,[11]; nirmatrelvir 1 µM,17800000 TCID50 and 23700000 TCID50
same,Y54C titer TCID50,[11]; nirmatrelvir 3 µM,3160000 TCID50 and 2370000 TCID50
same,Y54C titer TCID50,[11]; nirmatrelvir 10 µM,562000 TCID50 and 422000 TCID50
same,Y54C titer TCID50,[11]; nirmatrelvir 30 µM,56200 TCID50 and 31600 TCID50
same,F305L Q192R titer TCID50,[12]; nirmatrelvir 3 µM,178000000 TCID50 and 133000000 TCID50
same,F305L Q192R titer TCID50,[12]; nirmatrelvir 30 µM,56200000 TCID50 and 100000000 TCID50
same,F305L Q192R titer TCID50,[12]; nirmatrelvir 100 µM,13300000 TCID50 and 17800000 TCID50
same,N203D titer TCID50,[13]; nirmatrelvir 0.1 µM,10000000 TCID50
same,N203D titer TCID50,[13]; nirmatrelvir 3 µM,4220000 TCID50
same,N203D titer TCID50,[13]; nirmatrelvir 30 µM,1330000 TCID50 and 1000000 TCID50
same,N203D titer TCID50,[13]; nirmatrelvir 100 µM,133000 TCID50
same,wt titer TCID50,[2]; [15],75000000 TCID50 and 56200000 TCID50 and 42200000 TCID50
same,wt titer TCID50,"[2]; Fig 1C, nirmatrelvir 0.3 µM, 48 hours",56200000 TCID50 and 31600000 TCID50
same,wt titer TCID50,[2]; [16],23700000 TCID50 and 13300000 TCID50
same,wt titer TCID50,"[2]; Fig 1C, nirmatrelvir 100 µM, 48 hours",422 TCID50 and 562 TCID50 and 750 TCID50
same,wt titer TCID50,[2]; [17],178000000 TCID50 and 316000000 TCID50
same,wt titer TCID50,"[2]; Fig 3, nirmatrelvir 3 µM, 24 hours after infection",75000 TCID50 and 42200 TCID50
same,wt titer TCID50,[2]; [18],133 TCID50 and 75 TCID50
same,wt titer TCID50,[2]; [19],56.2 TCID50 and 42.2 TCID50
